These results are taken from patent US12440498B2 (priority 2020, dated 2025).

Experiment [1] concerns A/H1N1 pdm09 (A/Lyon/969/2009 H1N1). The following applies: diltiazem 90 μM, baloxavir 10 nM, combination; 48 h and 72 h post-infection.
The subject of experiment [2] is A/H3N2 (A/Texas/50/2012 H3N2). Particulars: diltiazem 90 μM, baloxavir 10 nM, combination; monotherapies up to 48 h post-infection.
The test system of experiment [3] is recombinant A/H1N1 pdm09 wildtype (WT). Particulars: diltiazem 90 μM (up to 48 h), baloxavir 10 nM (48 h and 72 h post-infection).
For experiment [4], the system named is A/H1N1 WT virus. The following applies: baloxavir increasing 1 nM to 128 nM; diltiazem constant 25 μM; alone or in combination.
Experiment [5] relates to highly-pathogenic virus A/H5N1 sensitive or resistant to oseltamivir. Particulars: cited from earlier work.

On to `COc1ccc([C@@H]2Sc3ccccc3N(CCN(C)C)C(=O)[C@@H]2OC(C)=O)cc1.Cl` [diltiazem], for which the “transepithelial resistance (TEER), integrity of infected epithelia” value in experiment [1], in experiment [2] and in experiment [3] was “remain stable” throughout. Moreover, in experiment [4], the “emergence of an A/H1N1 virus with the baloxavir resistance phenotype” value is on record as “did not induce the emergence”.

On to `NC(=O)c1nc(F)c[nH]c1=O` [favipiravir], for which the “protection of infected mice” value in experiment [5] is on record as “effective to protect mice”.
